According to article PMC7804251 (Communications Biology, 2021):

Molecular target: T1, cellular prion protein (PrP) (Mus musculus, UniProt P04925)
T1 construct: gene Prnp

**Q.** For C[n+]1ccc(C2=C3C=CC4=[N+]3[Fe-]35[n]6c2ccc6C(c2cc[n+](C)cc2)=C2C=CC(=[N+]23)C(c2cc[n+](C)cc2)=c2ccc([n]25)=C4c2cc[n+](C)cc2)cc1 [TP, Fe3+-TMPyP], which “dynamic mass redistribution (DMR), immobilized recombinant PrP” value is on record?
**A.** TP shows a detectable affinity for both full-length, human, and N-terminally deleted, mouse PrP molecules
